Pooled drug test results. Numbers come from NIAID ChemDB, via PubChem.

All rows: toxicity to cultured cells; cell line: Vero cells; measure: CC50

CCn: concentration that lowers growth or viability of the cells by n%. Conditions beyond the fields shown may differ between rows.

COc1cc2c(cc1/C=C/C(=O)c1ccc(C)cc1)C1CC[C@@]3(C)C(CC[C@@H]3O)C1CC2 ; method: neutral red ; result: 29.86 µM
C=Cc1ccc(C(=O)Nc2nnc(-c3ccc4c(c3)CCCC4)o2)cc1 ; method: luminescence ; result: >40 µg/mL
COc1cccc(-c2nsc(=O)o2)c1 ; method: ATP ; result: 11 µM
C/C(=C\CC[C@H](C)C1CC[C@@H](C)c2c(O)cc(C)cc21)CN ; method: MTT ; result: 215 µM
COc1ccc(Cn2ccc3c(-c4ccco4)nc(Cl)cc32)cc1 ; result: 58 µM
CC(C)(C)NC(=O)CN(C(=O)[C@H]1CC[C@@]2(C)C3CC=C4C[C@@H](O)CC[C@]4(C)C3CC[C@]12C)c1ccccc1 ; method: crystal violet ; result: 144 µM
Cc1ccc(C)n1-c1ccc(C(=O)NN2C(=O)c3ccccc3C2=O)cc1 ; method: MTT ; result: 252 µM
CC(C)[C@H]1CC[C@H]2[C@@H]3C=C[C@](C)(O)CC[C@]3(C)CC[C@]12C(=O)O ; method: fluorescence ; result: >624 µM
O=C(CNc1ccc([N+](=O)[O-])cc1)Sc1nnc(-c2ccncc2)o1 ; method: MTT ; result: >62.5 µg/mL
CC(C)[C@H]1CC[C@H]2[C@@H]3C=C[C@]4(C)CC[C@@]3(CC[C@]12CO)CO4 ; method: fluorescence ; result: >656 µM
CC[C@H](/C=C/C(C)[C@H]1CCC2C3CC=C4C[C@@H](O)CC[C@]4(C)C3CC[C@@]21C)C(C)C ; method: MTT ; result: 54.97 µg/mL
O=C(NN1C(=O)c2ccccc2C1=O)c1ccc(-n2cccc2)cc1 ; method: MTT ; result: 251 µM
CCOC(=O)c1ccc(N2CCN(CCn3c(-c4ccc(C)cc4)nc4cc(C(=O)OCC)ccc43)CC2)c(N)c1 ; method: MTT ; result: >62.5 µg/mL
O=C(Nc1nnc(-c2ccccc2Cl)o1)c1cccc(O)c1 ; method: luminescence ; result: >40 µg/mL
O=c1oc(C#Cc2ccccc2)ns1 ; method: ATP ; result: 21 µM
CC(C)=C[C@@H]1C[C@H](C)C2CC[C@@H](C)c3c(O)cc(C)c1c32 ; method: MTT ; result: 173 µM
Cc1ccc(NCC(=O)Sc2nnc(-c3ccncc3)o2)cc1 ; method: MTT ; result: >62.5 µg/mL
Cc1ccc(/C=C/c2nsc(=O)o2)cc1 ; method: ATP ; result: 21 µM
Cc1ccc(C)n1-c1nc(-c2ccc(Cl)cc2Cl)cs1 ; method: MTT ; result: 221 µM
N#Cc1ccc(Nc2ncnc3c(=N)n(NC(=O)c4ccccc4)cnc23)cc1 ; result: 2.47 µg/mL
O=c1oc(/C=C/c2ccccc2)ns1 ; method: ATP ; result: 22 µM
N=c1c2ncnc(Nc3ccc(F)cc3)c2ncn1NC(=O)c1ccco1 ; result: 2.17 µg/mL
Cc1ccc(C)n1-c1ccc(C(=O)NN2C(=O)c3c(Cl)c(Cl)c(Cl)c(Cl)c3C2=O)cc1 ; method: MTT ; result: 252 µM
CC(C)[C@H]1CC[C@H]2[C@@H]3C=C[C@]4(C)CC[C@@]3(CC[C@]12C(=O)O)CO4 ; method: fluorescence ; result: 255.9 µM
CC(C)(C)NC(=O)CN(C(=O)[C@H]1CC[C@@]2(C)C3CC=C4C[C@@H](O)CC[C@]4(C)C3CC[C@]12C)c1ccccc1Cl ; method: crystal violet ; result: 136.8 µM
COc1ccc(Cn2cnc3c(-c4ccco4)nc(Cl)cc32)cc1 ; result: >128 µM
O=c1oc(-c2cccc(F)c2)ns1 ; method: ATP ; result: 21 µM
COc1cc2c(cc1/C=C/C(=O)c1ccc3c(c1)OCO3)C1CC[C@@]3(C)C(CC[C@@H]3O)C1CC2 ; method: neutral red ; result: 65.04 µM
CC[C@H](CC[C@@H](C)[C@H]1CCC2C3CC=C4CC(OC5O[C@H](CO)[C@@H](O)[C@H](O)[C@H]5O)CC[C@]4(C)C3CC[C@@]21C)C(C)C ; method: MTT ; result: >100 µg/mL
Cc1cccc(NCC(=O)Sc2nnc(-c3ccncc3)o2)c1 ; method: MTT ; result: >62.5 µg/mL
CC(=O)Nn1cnc2c(Nc3ccc(F)cc3)ncnc2c1=N ; result: 18.7 µg/mL
CC(C)=CCc1c(O)cc2c(c1O)C(=O)CC(c1ccccc1)O2 ; method: MTT ; result: 21.87 µg/mL
CCOC(=O)c1ccc(N2CCN(CCn3c(-c4cncc(-c5ccc(F)cc5)c4)nc4cc(C(=O)OCC)ccc43)CC2)c(N)c1 ; method: MTT ; result: >62.5 µg/mL
Nc1cc(O)c(C(=O)O)cc1F ; method: MTT ; result: >62.5 µg/mL
O=C(CNc1ccccc1Cl)Sc1nnc(-c2ccncc2)o1 ; method: MTT ; result: >62.5 µg/mL
O=C(c1ccccc1)c1nsc(=O)o1 ; method: ATP ; result: 19 µM
N=c1c2ncnc(Nc3ccccc3)c2ncn1NC(=O)c1ccco1 ; result: 3.16 µg/mL
COc1cc2c(cc1/C=C/C(=O)c1ccc(Br)cc1)C1CC[C@@]3(C)C(CC[C@@H]3O)C1CC2 ; method: neutral red ; result: 79.96 µM
CN(C)c1cc2nc(C3CCCCC3)[nH]c2cc1NC(=O)c1ccc(OC(F)(F)F)cc1F ; result: >200 µg/mL
CC1=CC[C@]2(C)CC[C@]3(C(=O)O)[C@@H](C(C)C)CC[C@H]3[C@@H]2C=C1 ; method: fluorescence ; result: 18.2 µM
Cc1ccccc1NCC(=O)Sc1nnc(-c2ccncc2)o1 ; method: MTT ; result: >62.5 µg/mL
CCOC(=O)c1ccc(N2CCN(CCn3c(-c4ccc(OC(F)(F)F)cc4)nc4cc(C(=O)OCC)ccc43)CC2)c(N)c1 ; method: MTT ; result: >62.5 µg/mL
O=C(CNc1cccc([N+](=O)[O-])c1)Sc1nnc(-c2ccncc2)o1 ; method: MTT ; result: >62.5 µg/mL
Cc1ccc(C)n1-c1nc(-c2ccc([N+](=O)[O-])cc2)cs1 ; method: MTT ; result: 253 µM

5 of the rows above, restated:

{"structure": "C=Cc1ccc(C(=O)Nc2nnc(-c3ccc4c(c3)CCCC4)o2)cc1", "method": "luminescence", "result": ">40 µg/mL"}
{"structure": "O=C(c1ccccc1)c1nsc(=O)o1", "method": "ATP", "result": "19 µM"}
{"structure": "COc1cc2c(cc1/C=C/C(=O)c1ccc(C)cc1)C1CC[C@@]3(C)C(CC[C@@H]3O)C1CC2", "method": "neutral red", "result": "29.86 µM"}
{"structure": "O=c1oc(-c2cccc(F)c2)ns1", "method": "ATP", "result": "21 µM"}
{"structure": "N#Cc1ccc(Nc2ncnc3c(=N)n(NC(=O)c4ccccc4)cnc23)cc1", "result": "2.47 µg/mL"}